Measured values from several laboratories, pooled; numbers as filed in NIAID ChemDB.

All rows: tests in culture; organism: HIV-1; cell line: MT-4; read-out: EC50

ECn: concentration that inhibits the pathogen or its effect by n%. Conditions beyond the fields shown may differ between rows. An empty or dashed field is not shown.

| smiles | strain or isolate | changes | read by | conditions | value |
|---|---|---|---|---|---|
| COc1ccc(CCNc2nc(NC(=S)Nc3ccc4ccccc4c3)nc(Oc3cc(=O)oc4ccccc34)n2)cc1OC | IIIB |  | MTT |  | >54.6 µg/mL |
| CC(C)(C)NC(=O)c1ccccc1SCC(O)Cn1cc(C(=O)NC(C)(C)C)c(-c2ccccc2)c1 | IIIB |  | cytopathic effect / MTT |  | >101 µM |
| CCOC(=O)CNc1nc(Nc2ccccc2)nc(Oc2cc(=O)oc3ccccc23)n1 | IIIB |  | MTT |  | >61.15 µg/mL |
| C#Cc1ccc(Nc2nccc(Oc3c(C)cc(-c4cn(Cc5ccc(C(=O)OC)cc5)nn4)cc3C)n2)cc1 | RES056 |  | MTT |  | ≥37.66 µM |
| CCOC(=O)c1cn(CC(O)CNc2cccc(Cl)c2)cc1-c1ccccc1 | IIIB |  | cytopathic effect / MTT |  | >42.7 µM |
| CCOCn1c(Cc2ccccc2)c(C(C)C)c(=O)[nH]c1=O | NNRTI-resistant (RT Y181C) N119 | RT-Y181C | cytopathic effect / MTT |  | 44 µM |
| COC(=O)C1CCCN1C(=O)CCCN1C(=O)c2ccccc2C1=O | IIIB |  | MTT |  | >20.38 µM |
| Fc1cccc(F)c1CCNC(=S)Nc1cccc(Cl)n1 | IIIB |  | cytopathic effect / MTT |  | 0.004 µg/mL |
| C=C(C)COCn1c(C(=C)c2cc(C)cc(C)c2)c(CC)c(=O)[nH]c1=O | IIIB |  | cytopathic effect / MTT |  | 0.1 µM |
| O=C1c2ccccc2N(Cc2ccc(Cl)c(Cl)c2)S(=O)(=O)N1Cc1ccccc1 | IIIB |  | p24 |  | >125 µM |
| O=C(NCc1ccc(F)cc1F)c1cn2c(c(O)c1=O)C(=O)N1C3CC(COC1C2)C3 | NL4-3 |  | GFP | 100% human serum | 0.086 µM |
| C=C(C)COCn1c(C(=C)c2ccccc2)c(CC)c(=O)[nH]c1=O | IIIB |  | cytopathic effect / MTT |  | 3.4 µM |
| Cc1cccc(NC(=S)NCCc2c(F)cccc2F)n1 | IIIB |  | cytopathic effect / MTT |  | 0.033 µg/mL |
| O=C1c2ccccc2N(Cc2cccc3ccccc23)S(=O)(=O)N1Cc1ccccc1 | IIIB |  | p24 |  | >125 µM |
| COc1cccnc1NC(=S)NCCc1c(F)cccc1F | IIIB |  | cytopathic effect / MTT |  | >2.75 µg/mL |
| CNc1cc2c(=O)c(C(=O)O)cn(N(C)C)c2cc1N1CCN(c2ccccn2)CC1 | IIIB |  | cytopathic effect / MTT |  | >178 µM |
| N#Cc1ccc(Nc2nc(Oc3c(Cl)cc(Cl)cc3Cl)ncc2N)cc1 | RES056 |  | MTT |  | 2.8 µM |
| C=C(c1ccccc1)c1c(CC)c(=O)[nH]c(=O)n1COCC | IIIB |  | cytopathic effect / MTT |  | 2.8 µM |
| CCc1c(Cc2cc(C)cc(C)c2)n(COC/C(C)=C/c2ccccc2)c(=O)[nH]c1=O | NNRTI-resistant (RT Y181C) N119 | RT-Y181C | cytopathic effect / MTT |  | 2 µM |
| COC(=O)C(CCSC)NC(=O)CCCN1C(=O)c2ccccc2C1=O | IIIB |  | MTT |  | >18.85 µM |
| O=C1c2ccccc2N(COCc2ccccc2)S(=O)(=O)N1COCc1ccccc1 | IIIB |  | p24 |  | >44 µM |
| COC(=O)C(Cc1ccccc1)NC(=O)CCCN1C(=O)c2ccccc2C1=O | IIIB |  | MTT |  | >37.82 µM |
| CCOC(=O)c1ccccc1SCC(O)Cn1cc(C(=O)OCC)c(-c2ccccc2)c1 | IIIB |  | cytopathic effect / MTT |  | >50 µM |
| Cc1ccnc2c1NC(=O)c1cccnc1N2C1CC1 | RES056 |  | MTT |  | 4 µM |
| COc1cc([C@@H]2c3cc(O)c(OC)cc3C(=O)[C@@H](C)[C@H]2C)ccc1O | IIIB |  |  |  | 74.13 µg/mL |
| O=C(O)c1cn(C2CC2)c2nc(N3CCN(c4ccccn4)CC3)ccc2c1=O | IIIB |  | cytopathic effect / MTT |  | >8.32 µM |
| COc1cc([C@H]2O[C@@H](c3ccc(O)cc3)[C@H](C)[C@@H]2C)ccc1O | IIIB |  |  |  | 3.38 µg/mL |
| CNc1cc2c(=O)c(C(=O)O)cn(C)c2cc1N1CCN(c2ccccn2)CC1 | IIIB |  | cytopathic effect / MTT |  | 5.33 µM |
| O=C1c2ccccc2N(Cc2ccc(Cl)cc2)S(=O)(=O)N1Cc1ccc(Cl)cc1 | IIIB |  | p24 |  | >125 µM |
| CCCc1c(Cc2cc(C)cc(C)c2)n(COCC2CC=CCC2)c(=O)[nH]c1=O | IIIB |  | cytopathic effect / MTT |  | 0.08 µM |
| CCOC(=O)CNc1nc(Nc2ccccc2C)nc(Oc2cc(=O)oc3ccccc23)n1 | IIIB |  | MTT |  | >23.12 µg/mL |
| CC(=O)Nc1cnc(Oc2c(Br)cc(Br)cc2Br)nc1Nc1ccc(C#N)cc1 | RES056 |  | MTT |  | >118 µM |
| C=C(c1cc(C)cc(C)c1)c1c(CC)c(=O)[nH]c(=O)n1COC/C=C/c1ccccc1 | IIIB | RT-Y181C | cytopathic effect / MTT |  | >100 µM |
| N#Cc1ccc(Nc2nc(Oc3c(Cl)cc(Cl)cc3Cl)ncc2NC(=O)C(F)(F)F)cc1 | IIIB |  | MTT |  | 0.064 µM |
| CCc1c(Sc2ccccc2)n(COCc2ccccc2)c(=O)[nH]c1=O | A012D |  | p24 |  | 0.0029 µM |
| C#Cc1ccc(Nc2nccc(Oc3c(C)cc(-c4cn(CCc5cccs5)nn4)cc3C)n2)cc1 | IIIB | Y188L | MTT |  | >5.53 µM |
| CCOC(=O)CNc1nc(Nc2ccc3ccccc3c2)nc(Oc2cc(=O)oc3ccccc23)n1 | IIIB |  | MTT |  | >46.53 µg/mL |
| CC(NC(=S)NC(=O)CCCN1C(=O)c2ccccc2C1=O)C(=O)O | IIIB |  | MTT |  | >125 µM |
| CC(C)CN(C[C@@H](O)[C@H](Cc1ccccc1)NC(=O)O[C@H]1CCOC1)S(=O)(=O)c1ccc(N)cc1 | T21217 | L10F I47V L90M | reporter gene |  | 3650 nM |
| Cc1cc(C)c(Oc2ncc(NC(=O)C(F)(F)F)c(Nc3ccc(C#N)cc3)n2)c(C)c1 | IIIB |  | MTT |  | 0.039 µM |
| CC(O)C(NC(=S)NC(=O)CCCN1C(=O)c2ccccc2C1=O)C(=O)O | IIIB |  | MTT |  | >28.54 µM |
| CCCc1c(Cc2cc(C)cc(C)c2)n(COC/C(C)=C/c2ccccc2)c(=O)[nH]c1=O | IIIB |  | cytopathic effect / MTT |  | 0.03 µM |
| CC(=O)Nc1cnc(Oc2c(C)cc(Br)cc2C)nc1Nc1ccc(C#N)cc1 | RES056 |  | MTT |  | >147 µM |
| COc1cc(Br)cnc1NC(=S)NCCc1c(F)cccc1F | IIIB |  | cytopathic effect / MTT |  | 2.53 µg/mL |
| O=C1c2ccccc2N(Cc2ccccc2)S(=O)(=O)N1Cc1ccccc1 | IIIB |  | p24 |  | 20.3 µM |
| Nc1cc2c(=O)c(C(=O)O)cn(C3CC3)c2cc1N1CCN(c2ccccn2)CC1 | IIIB |  | cytopathic effect / MTT |  | 1.17 µM |
| Cc1c(Sc2ccccc2)n(COCc2ccccc2)c(=O)[nH]c1=O | IIIB |  | cytopathic effect / MTT |  | 0.093 µM |
| CCOC(=O)c1cn(CC(O)CSc2ccccc2C(=O)NC(C)(C)C)cc1-c1ccccc1 | IIIB |  | cytopathic effect / MTT |  | >94 µM |
| CCOC(=O)CNc1nc(Nc2ccc(OC)cc2)nc(Oc2cc(=O)oc3ccccc23)n1 | IIIB |  | MTT |  | >58.6 µg/mL |
| CN1C(=O)C(c2cc(Cl)c(O)c(Cl)c2)NC(=O)[C@@H]2NC(=O)C(c3cc(Cl)c(O)c(Cl)c3)NC(=O)[C@H](NC(=O)C(=O)c3cc(Cl)c(O)c(Cl)c3)Cc3c[nH]c4c(cccc34)-c3cc2cc(c3O)Oc2ccc(cc2)CC1C(=O)NC(C(=O)O)c1ccc(O)cc1 | IIIB |  | cytopathic effect / MTT |  | 1.7 µM |
| CCOC(=O)CNc1nc(Nc2ccc(OCC)cc2)nc(Oc2cc(=O)oc3ccccc23)n1 | IIIB |  | MTT |  | >62.13 µg/mL |
| CCc1c(Cc2cc(C)cc(C)c2)n(COC/C=C/c2ccccc2)c(=O)[nH]c1=O | NNRTI-resistant (RT Y181C) N119 | RT-Y181C | cytopathic effect / MTT |  | 4 µM |
| Fc1cccc(F)c1CCNC(=S)Nc1ncc(Cl)cc1Cl | IIIB |  | cytopathic effect / MTT |  | 0.887 µg/mL |

A second listing of 6 rows from above:

| smiles | strain or isolate | changes | read by | conditions | value |
|---|---|---|---|---|---|
| CC(O)C(NC(=S)NC(=O)CCCN1C(=O)c2ccccc2C1=O)C(=O)O | IIIB |  | MTT |  | >28.54 µM |
| COC(=O)C1CCCN1C(=O)CCCN1C(=O)c2ccccc2C1=O | IIIB |  | MTT |  | >20.38 µM |
| N#Cc1ccc(Nc2nc(Oc3c(Cl)cc(Cl)cc3Cl)ncc2NC(=O)C(F)(F)F)cc1 | IIIB |  | MTT |  | 0.064 µM |
| CC(NC(=S)NC(=O)CCCN1C(=O)c2ccccc2C1=O)C(=O)O | IIIB |  | MTT |  | >125 µM |
| CCc1c(Cc2cc(C)cc(C)c2)n(COC/C=C/c2ccccc2)c(=O)[nH]c1=O | NNRTI-resistant (RT Y181C) N119 | RT-Y181C | cytopathic effect / MTT |  | 4 µM |
| CN1C(=O)C(c2cc(Cl)c(O)c(Cl)c2)NC(=O)[C@@H]2NC(=O)C(c3cc(Cl)c(O)c(Cl)c3)NC(=O)[C@H](NC(=O)C(=O)c3cc(Cl)c(O)c(Cl)c3)Cc3c[nH]c4c(cccc34)-c3cc2cc(c3O)Oc2ccc(cc2)CC1C(=O)NC(C(=O)O)c1ccc(O)cc1 | IIIB |  | cytopathic effect / MTT |  | 1.7 µM |